Measurements reported in patent US10781426B2 (priority 2012, dated 2020).

Biological target: human dipeptidyl peptidase 4 (DPP4), full length, on cells, human, P27487 1-766

S1 Fc variant encompassing residues 1-357 of the MERS CoV spike protein
result: no binding (tested: 15 µg/ml)
